Measurements reported in PubChem BioAssay AID624099 (ICCB-Longwood, 2012).
The deposit covers about 21,000 reagents; below is a random part of them. 497 of all reagents (2.4%) count as active. 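Higher z means weaker E2 silencing; only reporter increases were scored, and knock-downs that hurt cell survival may mask genuine repressor factors.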 Entries without a mark were called inactive. The numbers tell different reagents against one gene apart.

Test: 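Human genes that papillomavirus E2 requires to repress the HPV18 LCR promoter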 (primary screen)
System: human C33A cervical carcinoma cells (HPV-negative) stably expressing BPV1 E2 and an HPV18 LCR luciferase reporter
Knock-down reagent: siRNA pool against human genes, 40 nM
Timing: 72 h
Read-out: 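Per-well luciferase luminescence, z-scored on each plate against the plate mean and SD with control wells left out, then averaged across three replicate plates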
Scale: mean z-score and z-score: higher = stronger reporter signal, weaker E2 silencing
Rule for the call: 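Hit if mean z-score reaches 2 and two or more of three replicate z-scores also reach 2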

With knock-down of TCEAL7 (transcription elongation factor A like 7), the record shows mean z-score -0.03; z-score, replicate A = 0.05; z-score, replicate B = -0.2; z-score, replicate C = 0.05. SRARP (steroid receptor associated and regulated protein) scored mean z-score 0.03; z-score, replicate A = -0.5; z-score, replicate B = 0.38; z-score, replicate C = 0.21. After knock-down of GMPR (guanosine monophosphate reductase) the results were mean z-score 0.18; z-score, replicate A = 0.35; z-score, replicate B = 0.33; z-score, replicate C = -0.15. Depletion of RPL19P10 (ribosomal protein L19 pseudogene 10) came out at: mean z-score 0.81; z-score, replicate A = 0.68; z-score, replicate B = 0.95; z-score, replicate C = 0.79. Knock-down of C1orf74 (chromosome 1 open reading frame 74) resulted in: mean z-score -0.87; z-score, replicate A = -0.52; z-score, replicate B = -0.88; z-score, replicate C = -1.21. With knock-down of ODAD4 (outer dynein arm docking complex subunit 4) the results were mean z-score -0.97; z-score, replicate A = -1; z-score, replicate B = -0.82; z-score, replicate C = -1.09.

Against ZNF510 (zinc finger protein 510), the values are mean z-score 0.34; z-score, replicate A = 0.33; z-score, replicate B = 0.45; z-score, replicate C = 0.23. Knock-down of GYPA (glycophorin A (MNS blood group)) resulted in: mean z-score 0.19; z-score, replicate A = 0.34; z-score, replicate B = -0.01; z-score, replicate C = 0.25. For ZNF516-DT (ZNF516 divergent transcript), the values are mean z-score -2.03; z-score, replicate A = -2.01; z-score, replicate B = -2.25; z-score, replicate C = -1.84. MUTYH (mutY DNA glycosylase) gave mean z-score 0.43; z-score, replicate A = 0.32; z-score, replicate B = 0.49; z-score, replicate C = 0.49. Against MST1 (macrophage stimulating 1) the deposit lists mean z-score 2.04; z-score, replicate A = 1.91; z-score, replicate B = 1.66; z-score, replicate C = 2.54. For BTBD8 (BTB domain containing 8) #1, the values are mean z-score -0.62; z-score, replicate A = -0.54; z-score, replicate B = -0.83; z-score, replicate C = -0.5.

BTBD8 (BTB domain containing 8) #2 showed mean z-score -1.47; z-score, replicate A = -1.64; z-score, replicate B = -1.54; z-score, replicate C = -1.23. NUP155 (nucleoporin 155) showed mean z-score 1.27; z-score, replicate A = 0.92; z-score, replicate B = 1.41; z-score, replicate C = 1.47. ZNF277 (zinc finger protein 277) gave mean z-score -1.13; z-score, replicate A = -1.08; z-score, replicate B = -1.18; z-score, replicate C = -1.14. Knock-down of CGREF1 (cell growth regulator with EF-hand domain 1) gave: mean z-score 0.97; z-score, replicate A = 0.54; z-score, replicate B = 1.06; z-score, replicate C = 1.3. With knock-down of FGF17 (fibroblast growth factor 17), the record shows mean z-score -1.32; z-score, replicate A = -1.3; z-score, replicate B = -1.1; z-score, replicate C = -1.57.

An excerpt of the results above, for reference:
MST1 (macrophage stimulating 1) — mean z-score = 2.04; z-score, replicate A = 1.91; z-score, replicate B = 1.66; z-score, replicate C = 2.54
BTBD8 (BTB domain containing 8) #1 — mean z-score = -0.62; z-score, replicate A = -0.54; z-score, replicate B = -0.83; z-score, replicate C = -0.5
BTBD8 (BTB domain containing 8) #2 — mean z-score = -1.47; z-score, replicate A = -1.64; z-score, replicate B = -1.54; z-score, replicate C = -1.23
NUP155 (nucleoporin 155) — mean z-score = 1.27; z-score, replicate A = 0.92; z-score, replicate B = 1.41; z-score, replicate C = 1.47

The list goes on.
Depletion of OR8B3 (olfactory receptor family 8 subfamily B member 3) came out at: mean z-score -0.71; z-score, replicate A = -0.73; z-score, replicate B = -0.74; z-score, replicate C = -0.67. After knock-down of AP3M1 (adaptor related protein complex 3 subunit mu 1), the screen gave mean z-score -0.57; z-score, replicate A = -0.91; z-score, replicate B = -0.26; z-score, replicate C = -0.54. Depletion of DNM2 (dynamin 2) resulted in: mean z-score 1.06; z-score, replicate A = 1.06; z-score, replicate B = 1.14; z-score, replicate C = 0.98. NIPA2 (NIPA magnesium transporter 2) scored mean z-score 1.05; z-score, replicate A = 1.46; z-score, replicate B = 0.92; z-score, replicate C = 0.77. Knock-down of LOC401199 (retired record) came out at: mean z-score -0.51; z-score, replicate A = -0.54; z-score, replicate B = -0.44; z-score, replicate C = -0.55. ACTN1 (actinin alpha 1) gave mean z-score -0.37; z-score, replicate A = -0.31; z-score, replicate B = -0.29; z-score, replicate C = -0.52.

After knock-down of NFE2L1 (NFE2 like bZIP transcription factor 1) the results were mean z-score 0.09; z-score, replicate A = 0.03; z-score, replicate B = 0.17; z-score, replicate C = 0.07. For TTLL11 (tubulin tyrosine ligase like 11) #1, the entry reads mean z-score -0.47; z-score, replicate A = -0.23; z-score, replicate B = -0.9; z-score, replicate C = -0.28. TTLL11 (tubulin tyrosine ligase like 11) #2 scored mean z-score 0.66; z-score, replicate A = 0.59; z-score, replicate B = 0.67; z-score, replicate C = 0.71. ANKRD44 (ankyrin repeat domain 44) showed mean z-score 0.08; z-score, replicate A = -0.22; z-score, replicate B = -0.36; z-score, replicate C = 0.82.
